Share of PSTVd loop 15 variants by leaf site

From the data files of Wu et al. 2024, doi:10.1371/journal.ppat.1012142.

Region: loop 15 of PSTVd (intermediate strain), upper and lower strand joined, each 5' to 3', the first 7 letters being the upper strand, closing pairs included. Wild type: GGAAACCGCUACUAC. Varied positions (N): GGAAACCGNNNNNNC.

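Three N. benthamiana plants were inoculated with the whole mutant pool. Samples came from the inoculated region at 5 days, the leaf margin at 10 and upper systemic leaves at 12.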

Numbers give reads per thousand; 0 = not seen among the reads, higher = more abundant. Each site shows the three plants. "Pool" is the share in the plasmid pool used as inoculum, on the same scale. The inoculated region was read from the minus strand, the other sites from the plus strand. IR is the inoculated region, LM the leaf margin, Sys the systemic leaves. Wild type was 33.9 per thousand in the pool and the most common sequence in every sample (inoculated region 202, 200, 159; leaf margin 724, 746, 710; systemic leaves 856, 883, 880). With 43,870-66,106 reads a sample, very low values are single reads. The authors trace changes outside the varied positions to PCR and sequencing errors or to mutation in the plant; presence does not show that a variant is infectious alone.

sequence	pool	IR	LM	Sys
GGAAACCGAGCACCC	0.304	0.0655 0.0964 0.133	0.0162 0 0.0601	0 0 0
GGAAACCGAACGCAC	0.0960	0.229 0.193 0.209	0.0323 0.356 0.0200	0.0161 0.0151 0
GGAAACCGAGCGUCC	0.176	0.180 0.0964 0.0571	0.0162 0 0	0 0 0
GGAAACCGCGCGUCC	0.256	0.278 0.289 0.362	0.0808 0.0891 0.100	0.0483 0 0
GGAAACCGAGGGAGC	0.240	0.0983 0.112 0.0762	0.0323 0.0223 0.0200	0 0 0
GGAAACCGGUUCCGC	0.272	0.0819 0.0803 0.0762	0 0 0.0200	0 0 0
GGAAACCGGUAUUUC	0.176	0.262 0.241 0.267	0.146 0.134 0.100	0.0483 0.0303 0.0456
GGAAACCGGUGACUC	0.256	0.0983 0.0482 0.114	0.0162 0 0	0.0161 0 0
GGAAACCGGGGCCUC	0.176	0.115 0.0321 0.0571	0.0162 0.0223 0.0401	0.0161 0 0
GGAAACCGGCCCGGC	0.144	0.0983 0.0482 0.0952	0 0 0.0200	0 0 0
GGAAACCGUAUCGAC	0.240	0.147 0.0643 0.152	0 0 0.0200	0 0 0
GGAAACCGUUAAAGC	0.192	0.0819 0.112 0.0762	0.0162 0 0.0200	0 0 0
GGAAACCGGCUUGGC	0.176	0.115 0.0803 0.228	0 0 0	0 0 0.0228
GGAAACCGACGAUUC	0.224	0.229 0.305 0.190	0.0970 0.111 0.200	0.0322 0.0303 0.0912
GGAAACCGGGCAGUC	0.224	0.0819 0.0964 0.0952	0.0162 0 0	0 0 0
GGAAACCGGGGUAUC	0.160	0.246 0.145 0.0762	0 0 0	0 0 0
GGAAACCGCGUGCAC	0.160	0.131 0.0803 0.0952	0.0162 0.0223 0.0401	0 0 0
GGAAACCGAGUCUUC	0.176	0.147 0.0964 0.133	0 0 0	0.0161 0 0
GGAAACCGUGUCCGC	0.192	0.0164 0.0964 0.0571	0 0 0.0200	0 0 0
GGAAACCGCGCAAGC	0.208	0.131 0.0964 0.152	0.0323 0 0	0.0161 0 0
GGAAACCGAAAUAUC	0.272	0.377 0.402 0.419	0.146 0.0891 0.100	0.0483 0 0
GGAAACCGCCCCUGC	0.288	0.0819 0.0803 0.152	0.0485 0 0.0200	0 0 0
GGAAACCGGAAGCUC	0.192	0.180 0.0643 0.114	0 0 0.0401	0 0 0
GGAAACCGUUCUGUC	0.288	0.0983 0.0482 0.171	0 0.0223 0	0 0 0
GGAAACCGACAAUCC	0.208	0.131 0.161 0.0952	0.0162 0.0223 0.0200	0 0 0
GGAAACCGUACGGGC	0.304	0.0983 0.0964 0.0762	0.0162 0.0223 0	0 0 0
GGAAACCGUAAGUAC	0.240	0.229 0.289 0.495	0.129 0.111 0.0601	0.0805 0 0
GGAAACCGAGAUGCC	0.160	0.147 0.0803 0.0952	0.0162 0.0445 0	0 0 0
GGAAACCGCCUACUC	0.176	0.115 0.0321 0.0762	0.0162 0 0.0401	0.0161 0 0
GGAAACCGCGUGAAC	0.240	0.0655 0.0161 0.133	0.0162 0.0223 0.0200	0 0 0
GGAAACCGAGAUUUC	0.288	0.475 0.289 0.362	0.129 0.0668 0.160	0.0322 0.0756 0.0912
GGAAACCGCAAUAAC	0.240	0.0819 0.112 0.152	0.0162 0.0223 0.0200	0 0 0
GGAAACCGCCGGAUC	0.240	0.0819 0.129 0.0762	0.0323 0.0223 0.0200	0 0 0
GGAAACCGGUUCGGC	0.256	0.0655 0.0803 0.114	0.0162 0 0.0200	0 0 0
GGAAACCGCCUUUUC	0.224	0.180 0.0482 0.0190	0.0162 0 0	0 0 0
GGAAACCGUGAUAAC	0.336	0.197 0.321 0.495	0.113 0.0891 0.160	0.0161 0.0303 0.0228
GGAAACCGCGAGUUC	0.288	0.278 0.305 0.381	0.162 0.0223 0.240	0.0161 0.0756 0.0912
GGAAACCGGAUCGAC	0.336	0 0.129 0.0571	0 0 0.0401	0 0 0
GGAAACCGCGUCUUC	0.256	0.0655 0.145 0.114	0.0162 0.0223 0.0401	0 0 0.0228
GGAAACCGAAUUCUC	0.160	0.0983 0.145 0.0762	0 0 0.0200	0.0161 0.0151 0
GGAAACCGCGGAGUC	0.368	0.262 0.145 0.152	0.0162 0 0.0200	0 0 0
GGAAACCGGAGCGCC	0.160	0.0983 0.112 0.0762	0 0 0.0200	0 0 0
GGAAACCGGUGGAUC	0.176	0.147 0.112 0.0571	0.0323 0.0223 0.0401	0 0 0
GGAAACCGUCGCACC	0.208	0.0983 0.257 0.0762	0.0162 0 0.0200	0 0 0
GGAAACCGCGCCGAC	0.288	0.0819 0.0643 0.0381	0 0.0223 0	0 0 0
GGAAACCGUGAGCUC	0.288	0.459 0.257 0.343	0.0970 0.0668 0.120	0 0 0
GGAAACCGCCCCGUC	0.176	0.131 0.193 0.133	0 0.0223 0	0 0.0151 0
GGAAACCGAAACCCC	0.208	0.115 0.129 0.0762	0.0162 0 0	0 0 0
GGAAACCGCAACAGC	0.240	0.0328 0.0643 0.0762	0 0 0.0200	0 0 0
GGAAACCGAACCUGC	0.224	0.147 0.0803 0.133	0 0 0	0 0 0
GGAAACCGCUAGCAC	0.224	0.262 0.337 0.438	0.113 0.0445 0.0601	0.0322 0.0756 0.0684
GGAAACCGUACCUCC	0.192	0.0819 0.209 0.0571	0.0162 0 0.0401	0 0 0
GGAAACCGACUAGGC	0.256	0.0164 0.0964 0.0952	0 0 0	0 0 0
GGAAACCGUCGUAAC	0.192	0.164 0.145 0.114	0 0 0	0.0161 0 0
GGAAACCGCGCGUUC	0.240	0.360 0.273 0.324	0.0485 0.0891 0.240	0.0161 0.0908 0.0912
GGAAACCGGGAUUCC	0.256	0.0983 0.0643 0.0571	0 0 0	0 0 0
GGAAACCGUUCCGAC	0.432	0.115 0.129 0.0571	0.0323 0 0.0200	0 0 0
GGAAACCGGAGUAGC	0.160	0.115 0.0803 0.0952	0 0 0.0401	0 0 0
GGAAACCGCGCUCAC	0.240	0.0491 0.0964 0.114	0 0 0.0200	0 0 0
GGAAACCGUAAAGAC	0.176	0.131 0.161 0.0762	0 0 0.0401	0 0 0
GGAAACCGUCAUGCC	0.112	0.131 0.0964 0.0762	0.0162 0.0223 0	0 0 0
GGAAACCGGAGUGAC	0.352	0.0328 0.0803 0.114	0 0 0	0 0 0
GGAAACCGAUGCGCC	0.192	0.115 0.0482 0.0952	0 0 0	0 0 0
GGAAACCGAAAGGCC	0.112	0.0819 0.0964 0.0571	0.0162 0 0	0 0 0
GGAAACCGACAUCUC	0.288	0.115 0.177 0.0571	0 0 0	0.0161 0 0
GGAAACCGCUGCUCC	0.144	0.0983 0.0803 0.0381	0.0323 0 0.0200	0 0 0

Extract of 4 entries:

| sequence | pool | IR | LM | Sys |
|---|---|---|---|---|
| GGAAACCGCGUGCAC | 0.160 | 0.131 0.0803 0.0952 | 0.0162 0.0223 0.0401 | 0 0 0 |
| GGAAACCGGUGACUC | 0.256 | 0.0983 0.0482 0.114 | 0.0162 0 0 | 0.0161 0 0 |
| GGAAACCGGUUCCGC | 0.272 | 0.0819 0.0803 0.0762 | 0 0 0.0200 | 0 0 0 |
| GGAAACCGUCAUGCC | 0.112 | 0.131 0.0964 0.0762 | 0.0162 0.0223 0 | 0 0 0 |